Experimental data as given in PMC6980832, “Crystal structures of Triosephosphate Isomerases from Taenia solium and Schistosoma mansoni provide insights for vaccine rationale and drug design against helminth parasites” (PLoS Neglected Tropical Diseases, 2020).

System: O=CC(O)COP(=O)(O)O
Assay: purified protein
Details: 0.1 M TEA-HCl pH 7.4, 10 mM EDTA, 0.2 mM NADH, 21 °C, G3P 0 to 5 mM, G3P to DHAP direction

Substance	Km	kcat	kcat/Km
SmTPI (Schistosoma mansoni; C221D)	2840 ± 880 µM	1220 s⁻¹	427000 M⁻¹ s⁻¹
SmTPI (Schistosoma mansoni; C221K)	2570 ± 930 µM	1400 s⁻¹	541000 M⁻¹ s⁻¹
SmTPI (Schistosoma mansoni; C221S)	870 ± 120 µM	2490 s⁻¹	2.84e+06 M⁻¹ s⁻¹
SmTPI (Schistosoma mansoni; C221Y)	1600 ± 500 µM	875 s⁻¹	545000 M⁻¹ s⁻¹
